Record: PubChem BioAssay AID1259414 (Drosophila RNAi Screening Center, 2018)

Screen: 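Fly genes that alter Wolbachia amount inside host cells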 (primary screen)
System: Drosophila JW18 cells infected with Wolbachia
Knock-down reagent: long dsRNA against Drosophila genes, 0.25 µg dsRNA per well of a 384-well plate
Duration: 5 days
Conditions: cells persistently infected with Wolbachia before knock-down; no added drug
Measured: 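Automated imaging of bacterial rRNA staining divided by host cell count, reported as plate-normalised robust z-score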
Reading the numbers: Wolbachia per cell robust z: higher = more Wolbachia per host cell than the plate typical
Call rule: 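Active if absolute robust z reaches 1.5 in two or more of three replicates, leaving out multi- or no-target dsRNAs, genes unexpressed in JW18 and A1 wells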
The screen tested about 24,000 reagents; below is an unselected part of those with a known target gene and a result. Over the whole deposit, about 1,210 (5%) got an active call. 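Inactive calls also include excluded dsRNAs with several or no targets, genes unexpressed in JW18, and well A1, regardless of score.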 Unmarked entries are inactive. The numbers tell different reagents against one gene apart. A plus sign joins genes that one reagent is predicted to hit.

target	reagent no.	Wolbachia per cell robust z, rep 1	Wolbachia per cell robust z, rep 2	Wolbachia per cell robust z, rep 3
Rtc1	1	-0.0736	-0.37	0.106
CG6236	1	1.27	-0.169	-1.52
CG30268	1	-0.738	-0.808	-0.263
CG31661	1	-5.41	-0.359	-1.26
CG31661	2	-0.194	-0.528	0.518
CG43088	1	0.862	0.491	1.35
CG43088	2	-3.48	-1.31	-0.562
CG31161	1	-3.99	0.367	1.22
CG31161	2	0.714	1.11	0.972
Rnf11	1	0.632	0.671	0.975
Rnf11	2	0.562	0.716	1.02
CG12379 + CG8191	1	-0.12	-0.832	0.137
CG7879	1	-0.149	-1.81	0.0633
CG7879	2	0.0377	0.198	0.728
Tdc1	1	0.769	0.632	0.0907
tomboy20	1	-0.993	-0.148	0.12
Uba4	1	-2.45	0.551	-0.068
Uba4	2	0.0407	-0.485	0.183
CG34347	1	-2.29	0.902	0.964
CG34347	2	0.384	1.44	-0.432
CG34347	3	0.634	0.495	-0.955
CG43779 + hbt	1	0.576	-0.325	-0.35
PSMG1	1	-2.44 (active)	-2.91	-1.24
PSMG1	2	-0.234	-1.5	-0.901
CG42232	1	-0.643	-0.559	0.738
CG42232	2	0.419	0.896	-0.437
CG42232	3	-0.601	1.02	-4.44
BomS4	1	0.907	-0.254	-0.226
Naxd	1	0.213	0.0455	0.364
DopEcR	1	0.625	0.052	-0.859
CG16734	1	1.28	1.47	-0.122
sprt	1	-1.1	0.183	-0.878
CG10581	1	-0.149	-1.97	1.25
CG7084	1	0.189	-10.3	1.32
CG17404	1	-4.62	0.112	0.635
CG5973	1	-0.824	0.51	0.0984
CG32276	1	0.765	0.219	0.848
Reg-2	1	0.152	0.366	-1.7
Reg-2	2	0.4	-0.329	-0.427
Reg-2	3	1.1	0.287	0.654

Look-ups from the entries so far:
CG42232 #2, Wolbachia per cell robust z, rep 2: 0.896
Under “Wolbachia per cell robust z, rep 2”, CG43088 #2 shows -1.31
Result of Rnf11 #1 in “Wolbachia per cell robust z, rep 2”: 0.671
Uba4 #1, Wolbachia per cell robust z, rep 2 = 0.551
Uba4 #2, Wolbachia per cell robust z, rep 3 → 0.183

Continued:
target	reagent no.	Wolbachia per cell robust z, rep 1	Wolbachia per cell robust z, rep 2	Wolbachia per cell robust z, rep 3
CG12880	1	-0.281	0.715	-0.79
CG14205	1	0.0891	0.59	1.18
CG14205	2	1.11	1.33	0.738
CG14205	3	1.05	0.634	-0.524
Panx	1	-0.0217	0.894	0.258
CG32440	1	-6.91	-0.708	-0.926
Tmem131	1	-1.13	0.987	0.703
Obp56b	1	-0.222	0.0865	0.0866
par-1	1	-0.656 (active)	1.73	3.03
par-1	2	0.736	0.799	0.909
par-1	3	0.0141	1.06	0.152
par-1	4	1.47	0.935	1.09
par-1	5	0.46	0.466	-0.813
par-1	6	-0.122	-0.27	0.263
CG33767	1	-0.22	-2.06	-1.46
CG5921	1	0.243	0.817	-0.474
CG5921	2	-1.59	-0.409	0.108
CG5921	3	1.18	0.681	0.482
CG32445	1	-1.74	1.91	1.37
Cyp4p2	1	0.45	0.622	-0.91
Cyp4p2	2	-6.56	-0.207	-0.347
CG6497	1	-1.96	-1.31	-2.84
CG6497	2	0.833	0.416	1.17
CG6497	3	-1.16	0.384	-1.91
RPA1	1	0.742	1.3	-0.133
CG15525	1	0.434	0.453	0.166
CG15525	2	0.168	0.973	0.641
CG3483	1	-0.526	-0.561	-0.487
